Anti-infective test results gathered from many reports (values: NIAID ChemDB through PubChem).

All rows: whole-cell or culture tests; agent: Cryptococcus neoformans; endpoint: MFC

Blank or dashed fields: not listed here. Two numbers with a dash give a range or band. Neighbouring rows are from separate reports.

| structure | strain | result |
|---|---|---|
| COc1ccc(CN(Cc2ccc(-c3ccccc3)cc2)n2ccnc2)cc1 | - | >200 µM |
| Cc1nn(-c2ccccc2)c2nsc(N)c12 | - | 8–16 µg/mL |
| C[C@@H](n1cnc2cc(Cl)ccc2c1=O)[C@](O)(Cn1cncn1)c1ccc(F)cc1F | Isolate H99 | 20 µg/mL |
| NCCNC(=O)C1=Nc2ccc(NC(=O)C3=Nc4ccc(C(=O)Nc5ccc6[nH]c(C(=O)NCCN)cc6c5)cc4C3)cc2C1 | Serotype B | 8 µg/mL |
| CCCn1nc(-c2cc(C)on2)c(N=O)c1C | - | 2.4 µM |
| NC(=NC1CCCC1)c1ccc(-c2ccc(-c3ccc(C(N)=NC4CCCC4)cc3)o2)cc1 | H99 | 6.25 µg/mL |
| Cc1cc(-c2nn(C)c(C)c2N=O)no1 | - | 3.1 µM |
| N=C(N)c1ccc(OCCCC(O)COc2ccc(C(=N)N)cc2)cc1 | 119.95 | 1.56 µg/mL |
| C[C@@H](n1ncn(-c2ccc(OCC(F)(F)C(F)F)cc2)c1=O)[C@](O)(Cn1cncn1)c1ccc(F)cc1F | DUMC 133.95 | 1 µg/mL |
| NC(=S)NC1N=C(c2ccccc2)SN1 | - | 32 µg/mL |
| COc1c(O)c2c(=O)cc(OC)c3c4c(OC)cc(=O)c5c(O)c(OC)c6c(c(c1CC(C)=C6OC(C)=O)c23)c54 | - | >100 µg/mL |
| C[C@H]1[C@H](O)[C@@H](C)/C=C/C=C/C=C/C=C/C=C/C=C/C=C/[C@H](O[C@@H]2O[C@H](C)[C@@H](O)[C@H](N)[C@@H]2O)C[C@@H]2O[C@](O)(C[C@@H](O)C[C@@H](O)CC[C@H](O)[C@@H](O)C[C@@H](O)CC(=O)O[C@H]1C)C[C@H](O)[C@H]2C(=O)O | ATCC 90113 | 2.5 µg/mL |
| Cc1ccc(CC(Cc2ccc(-c3ccccc3)cc2)n2ccnc2)cc1 | - | 33 µM |
| N=C(N)c1ccc2nc(CCCCc3nc4ccc(C(=N)N)cc4[nH]3)[nH]c2c1 | H99 | >100 µg/mL |
| CC(C)N=C(N)c1ccc2nc(-c3ccc(CCc4ccc(-c5nc6ccc(C(N)=NC(C)C)cc6[nH]5)cc4)cc3)[nH]c2c1 | 135.95 | 0.19 µg/mL |
| Cc1cc(-c2c(N=O)c(C)nn2CCO)no1 | - | 0.8 µM |
| COc1ccc(CC(Cc2ccc(-c3ccccc3)cc2)n2ccnc2)cc1 | - | 33 µM |
| COc1cc(NC(C)CCCN)c2nc(C(C)(C)C)ccc2c1Oc1cccc(C(F)(F)F)c1 | - | 5 µg/mL |
| Cc1ccc(CN(Cc2ccc(-c3ccccc3)cc2)n2ccnc2)cc1 | - | 200 µM |
| CCN1CCC(O)(/C=C/c2ccc(Cl)cc2)C(C(=O)/C=C/c2ccc(Cl)cc2)C1 | 15 strains | 2 µg/mL |
| Cc1cc(-c2cc(C)on2)n(C)n1 | - | >200 µM |
| C[C@@H]1CCC2(OC1)OC1CC3C4C[C@H](OC5O[C@@H](CO)[C@H](O)[C@@H](O)[C@@H]5O)[C@H]5C[C@@H](OC6O[C@H](CO)[C@@H](O)[C@H](O)[C@H]6O)CC[C@]5(C)C4CC[C@]3(C)C1[C@@H]2C | ATCC 90113 | >20 µg/mL |
| Clc1ccc(CC(Cc2ccc(-c3ccccc3)cc2)n2ccnc2)c(Cl)c1 | - | 33 µM |
| CC1=C2[C@@H](OC(=O)/C=C/c3ccccc3)[C@H](C(C)C)CC[C@]2(C)[C@@H](O)CC1=O | CECT1075 | 8 µg/mL |
| COc1ccccc1CC(Cc1ccc(-c2ccccc2)cc1)n1ccnc1 | - | 33 µM |
| CCCCCCCCCCCCCCCCOP(=O)([O-])OCC[N+](C)(C)C | - | 8 µg/mL |
| Fc1ccc(CN(Cc2ccc(-c3ccccc3)cc2)n2ccnc2)c(F)c1 | - | 33 µM |
| COC1CC2CCC(C)C(O)(O2)C(O)C(O)N2CCCCC2C(=O)OC(C(C)CC2CCC(O)C(OC)C2)CC(=O)C(C)/C=C(\C)C(O)C(OC)C(=O)C(C)CC(C)/C=C/C=C/C=C/1C | WILD TYPE | 3.12 µg/mL |
| N=C(N)c1ccc(OCCCC2CCN(CCCOc3ccc(C(=N)N)cc3)CC2)cc1 | ATCC90112 | 0.125 µg/mL |
| CCCCCCCCOc1ccc(C(=O)NC2C[C@@H](O)[C@@H](O)NC(=O)C3[C@@H](O)[C@@H](C)CN3C(=O)C(C(C)O)NC(=O)C([C@H](O)[C@@H](O)c3ccc(O)cc3)NC(=O)C3C[C@@H](O)CN3C(=O)C(C(C)O)NC2=O)cc1 | 12 strains | >40 µg/mL |
| COC1CC2CCC(C)C(O)(O2)C(=O)C(=O)N2CCCCC2C(=O)OC(C(C)CC2CCC(O)C(OC)C2)CC(=O)C(C)/C=C(\C)C(O)C(OC)C(=O)C(C)C[C@](C)(N(O)C(=O)NN2CCCCC2)/C=C/C=C/C=C/1C | WILD TYPE | 3.12 µg/mL |